Data from article PMC7038240 (Antimicrobial Agents and Chemotherapy, 2020).

Test system: VIM-2 and NDM-1 metallo-β-lactamases
Assay: Inhibition of VIM-2 and NDM-1 MBLs (modality, reversibility, range)

In the case of `NCCN[C@H]1CC[C@H](CC(=O)N[C@H]2Cc3cccc(C(=O)O)c3OB2O)CC1` [Taniborbactam], the reversibility of inhibition (enzymatic activity fully recovered after rapid jump dilution) is reported as “reversible” and the inhibition modality (steady-state kinetic analysis) is reported as “competitive inhibitor”.
